Measured values from several laboratories, pooled; numbers as filed in NIAID ChemDB.

All rows: growth or infection tests; species: Candida albicans; read-out: MIC

Lines come from different laboratories, so protocols vary.

structure	strain	result
Clc1ccc(C(Cn2ccnc2)OCc2ccc(-c3ccccc3)cc2)c(Cl)c1	Y0109	128 µg/mL
CCCCCOc1ccc(-c2ccc(-c3ccc(C(=O)N[C@H]4CCCNC(=O)[C@@H]5C[C@H](NC(C)=O)CN5C(=O)[C@H]([C@@H](C)O)NC(=O)[C@H](CCc5ccc(O)cc5)NC(=O)[C@@H]5C[C@@H](O)CN5C(=O)[C@H]([C@@H](C)O)NC4=O)cc3)cc2)cc1	ATCC 38247	0.39 µg/mL
Cc1c(Cl)[n+](=O)c2cc(Cl)ccc2n1[O-]	Clinical isolate 4	15.6 µg/mL
CCCCCOc1ccc(-c2ccc(-c3ccc(C(=O)N[C@H]4CCCNC(=O)[C@@H]5C[C@H](N)CN5C(=O)[C@H]([C@@H](C)O)NC(=O)[C@H](COCc5ccccc5)NC(=O)[C@@H]5C[C@@H](O)CN5C(=O)[C@H]([C@@H](C)O)NC4=O)cc3)cc2)cc1	ATCC 62376	1.56 µg/mL
Clc1ccc(C(Cn2ccnc2)OC/C=C/c2ccccc2)c(Cl)c1	CA2	2 µg/mL
Cc1c(Sc2ccccc2)[n+](=O)c2cc(Cl)ccc2n1[O-]	Clinical isolate 21	31.25 µg/mL
CCCCCOc1ccc(-c2ccc(-c3ccc(C(=O)N[C@H]4CCCNC(=O)[C@@H]5C[C@H](N)CN5C(=O)[C@H](CO)NC(=O)C(CCc5ccc(O)cc5)NC(=O)[C@@H]5C[C@@H](O)CN5C(=O)[C@H]([C@@H](C)O)NC4=O)cc3)cc2)cc1	ATCC 38247	0.2 µg/mL
C[C@@H](NC(=O)c1ccc(Cl)cc1NC=O)[C@](O)(Cn1cncn1)c1ccc(F)cc1F	76 strains	0.07 µg/mL
CCCCCOc1ccc(-c2ccc(-c3ccc(C(=O)N[C@H]4CCCNC(=O)C5C[C@H](N)CN5C(=O)C(C(C)O)NC(=O)C(c5ccc(O)cc5)NC(=O)C5CC(O)CN5C(=O)C(C(C)O)NC4=O)cc3)cc2)cc1	ATCC 10231	50 µg/mL
O[C@](Cn1cncn1)(Cn1cnc(/C=C/c2ccc(OCC(F)(F)C(F)F)cc2)n1)c1ccc(F)cc1F	Isolate 04-31	0.25 µg/mL
Cc1ccc(C(Cn2ccnc2)OCc2ccc(C(C)(C)C)cc2)cc1	CA7	>128 µg/mL
CCCCCOc1ccc(-c2ccc(-c3ccc(C(=O)N[C@H]4CCCNC(=O)C5CCCN5C(=O)C(C(C)O)NC(=O)C(CCc5ccc(O)cc5)NC(=O)C5C[C@@H](O)CN5C(=O)C(C(C)O)NC4=O)cc3)cc2)cc1	ATCC CCH442	6.25 µg/mL
Clc1ccc(C(Cn2ccnc2)OCc2cccc3ccccc23)cc1	PR1	>128 µg/mL
C[C@@H](n1cnc2cc(OCCF)ccc2c1=O)[C@](O)(Cn1cncn1)c1ccc(F)cc1F	76 strains	0.15 µg/mL
CCCCCCCCOc1ccc(-c2ccc(C(=O)N[C@H]3CCCNC(=O)[C@@H]4C[C@H](N)CN4C(=O)[C@H]([C@@H](C)O)NC(=O)[C@H](CCc4ccc(O)cc4)NC(=O)[C@@H]4C[C@@H](O)CN4C(=O)[C@H]([C@@H](C)O)NC3=O)cc2)cc1	ATCC 38247	0.39 µg/mL
Cc1c(S(=O)(=O)c2ccccc2)[n+](=O)c2ccccc2n1[O-]	Clinical isolate 8	15.6 µg/mL
CCCCCOc1ccc(-c2ccc(-c3ccc(C(=O)N[C@H]4CCCNC(=O)[C@@H]5C[C@H](N)CN5C(=O)CNC(=O)C(CCc5ccc(O)cc5)NC(=O)[C@@H]5C[C@@H](O)CN5C(=O)[C@H]([C@@H](C)O)NC4=O)cc3)cc2)cc1	ATCC 10231	0.39 µg/mL
C[C@@H](n1cnc2ncccc2c1=O)[C@](O)(Cn1cncn1)c1ccc(F)cc1F	406 strains	5 µg/mL
Cc1c(O)cccc1C(=O)N[C@@H](CSc1ccccc1)[C@H](O)CN1C[C@H]2CCCC[C@H]2C[C@H]1C(=O)NC(C)(C)C	I162B	64 µg/mL
CCCCCCCC(=O)N[C@H]1C[C@H]2C(=O)NCCC[C@H](NC(=O)c3ccc(-c4ccc(-c5ccc(OCCCCC)cc5)cc4)cc3)C(=O)N[C@@H]([C@@H](C)O)C(=O)N3C[C@H](O)C[C@H]3C(=O)N[C@@H](CCc3ccc(O)cc3)C(=O)N[C@@H]([C@@H](C)O)C(=O)N2C1	ATCC 62376	50 µg/mL
C[C@@H](n1cnc2cc(F)c(F)cc2c1=O)[C@](O)(Cn1cncn1)c1ccc(F)cc1F	406 strains	0.15 µg/mL
CCCCCOc1ccc(-c2ccc(-c3ccc(C(=O)N[C@H]4CCCNC(=O)[C@@H]5C[C@H](N)CN5C(=O)[C@H]([C@@H](C)O)NC(=O)[C@H](Cc5ccc(O)cc5)NC(=O)[C@@H]5C[C@@H](O)CN5C(=O)[C@H]([C@@H](C)O)NC4=O)cc3)cc2)cc1	ATCC 38247	25 µg/mL
CCCCCCCCOc1ccc(N2CCN(c3ccc(C(=O)N[C@H]4CCCNC(=O)C5C[C@H](N)CN5C(=O)C(C(C)O)NC(=O)C(Cc5ccc(C)cc5)NC(=O)C5CCCN5C(=O)C(C(C)O)NC4=O)cc3)CC2)cc1	ATCC CCH442	6.25 µg/mL
C(=C\c1ccccc1)/COC(Cn1ccnc1)c1ccccc1	CDCB385	128 µg/mL
CCCCCOc1ccc(-c2ccc(C(=O)N[C@H]3CCCNC(=O)C4C[C@H](N)CN4C(=O)C(C(C)O)NC(=O)C(CCc4ccc(O)cc4)NC(=O)C4C[C@@H](O)CN4C(=O)C(C(C)O)NC3=O)cc2)cc1	ATCC CCH442	0.2 µg/mL
CC(C)N=C(N)c1ccc2nc(-c3ccc4c(c3)Cc3cc(-c5nc6ccc(C(N)=NC(C)C)cc6[nH]5)ccc3-4)[nH]c2c1	ATCC 76615	1.56 µg/mL
CCCCCOc1ccc(-c2ccc(-c3ccc(C(=O)N[C@H]4CCCNC(=O)[C@@H]5C[C@H](NC(=O)c6ccccc6)CN5C(=O)[C@H]([C@@H](C)O)NC(=O)[C@H](CCc5ccc(O)cc5)NC(=O)[C@@H]5C[C@@H](O)CN5C(=O)[C@H]([C@@H](C)O)NC4=O)cc3)cc2)cc1	ATCC CCH442	6.25 µg/mL
CCCCCOc1ccc(-c2ccc(-c3ccc(C(=O)N[C@H]4CCCNC(=O)[C@@H]5C[C@H](N)CN5C(=O)[C@@H]([C@H](C)O)NC(=O)C(CCc5ccc(O)cc5)NC(=O)[C@@H]5C[C@@H](O)CN5C(=O)[C@H]([C@@H](C)O)NC4=O)cc3)cc2)cc1	ATCC 62376	12.5 µg/mL
COc1cccc2c(=O)n([C@H](C)[C@](O)(Cn3cncn3)c3ccc(F)cc3F)cnc12	60 strains	2.5 µg/mL
CCCCCOc1ccc(-c2ccc(-c3ccc(C(=O)N[C@H]4CCCNC(=O)C5[C@@H](O)CN5C(=O)C(C(C)O)NC(=O)C(CCc5ccc(O)cc5)NC(=O)C5C[C@@H](O)CN5C(=O)C(C(C)O)NC4=O)cc3)cc2)cc1	ATCC CCH442	0.39 µg/mL
CCOc1cc2c(cc1F)n([O-])c(C)c(Cl)[n+]2=O	Clinical isolate 16	62.5 µg/mL
CCCCCOc1ccc(-c2ccc(-c3ccc(C(=O)N[C@H]4CCCNC(=O)C5C[C@H](N)CN5C(=O)C(CCCN(C)C)NC(=O)C(CCc5ccc(O)cc5)NC(=O)C5C[C@@H](O)CN5C(=O)C(C(C)O)NC4=O)cc3)cc2)cc1	ATCC 62376	0.39 µg/mL
CC(=C/C=C/C(=O)O)/C=C/C=C(\C)C(O)C(C)C(=O)O[C@H]1C[C@H](C)C=C2C=C[C@@]3(C)O[C@@H](O)CC(=O)[C@]3(C)[C@H]21	CCH442	3.12 µg/mL
Cc1c(Sc2ccccc2)[n+](=O)c2cc(C(F)(F)F)ccc2n1[O-]	Clinical isolate 23	15.6 µg/mL

Repeating the first 2 entries:

{"structure": "Clc1ccc(C(Cn2ccnc2)OCc2ccc(-c3ccccc3)cc2)c(Cl)c1", "strain": "Y0109", "result": "128 µg/mL"}
{"structure": "CCCCCOc1ccc(-c2ccc(-c3ccc(C(=O)N[C@H]4CCCNC(=O)[C@@H]5C[C@H](NC(C)=O)CN5C(=O)[C@H]([C@@H](C)O)NC(=O)[C@H](CCc5ccc(O)cc5)NC(=O)[C@@H]5C[C@@H](O)CN5C(=O)[C@H]([C@@H](C)O)NC4=O)cc3)cc2)cc1", "strain": "ATCC 38247", "result": "0.39 µg/mL"}